Changes are numbered by the printed parent chain.
B1: mAb10930 (antibody, V domains shown)
VH: EVQLVESGGGLVQPGRSLRLSCAASGFTFDDYAMYWVRQAPGKGLEWVSGISWNSGSIGYADSVKGRFTISRDNAKNSLYLQMNSLRAADTALYYCAKDKDWNSRGYYYYGMDVWGQGTTVTVSS
VL: not shown
B2: mAb10935 (antibody, V domains shown)
VH: EVQLVESGGGLVQPGGSLRLSCAASGFTVSSNYMSWVRQAPGKGLEWVSLIYSGGSTYYADSVKGRFTISRHNSKNTLYLQMNSLRSEDTAVYYCARVPLGDYYYGMDVWGQGTTVTVSS
VL: DIQMTQSPSSLSASVGDRVTITCQASQDINKYLNWYQQKPGKAPKLLIYDASNLETGVPSRFSGSGSGTDFTFTISSLQPEDIATYYCQQSDNLPLTFGGGTKVEIKR
B3: mAb10938 (antibody, V domains shown)
VH: EVQLVESGGGLVQPGGSLRLSCAVSGFTVSSNYMSWVRQAPGKGLEWVSLIYSGGSTFYADSVKGRFTISRHNSKNTLYLQMNSLRAEDTAVYYCAREGGYSYDYNYWGQGTLVTVSS
VL: B2 VL with N30R, K31N, S65I, S91Y, L96I, G100Q, K103R, V104L
B4: mAb10939 (antibody, V domains shown)
VH: EVQLVESGGGLVQPGGSLRLSCAASGLTVSSNYMNWVRQVPGKGLEWVSVIYSGGSKFYVDSVKGRFTISRHNSKNTLYLQMNSLRPEDTAVYYCTRDAQYYGMDVWGQGTTVTVSS
VL: DIQMTQSPSSLSASVGDRVTITCRASQSISTYLHWYQQKPGEAPKLLIYAASSLQSGVPSRFSGSGSGTDFTLTISSLQPEDFATYYCQQSYSTPPEIFGQGTKLEIKR
B5: mAb10966 (antibody, V domains shown)
VH: EVQLVESGGGLVQPGGSLRLSCAASGLTVSSNYMSWVRQAPGKGLEWVSVIYSGGSTFYADSVKGRFTISRDNSKNTLYLQMNSLRPEDTAVYYCAREGRIAATGYGMDVWGQGTTVTVSS
VL: B2 VL with N30S, K31N, E55G, G66R, Q89H, S91Y, L96Q, G100P, E105D
B6: mAb10985 (antibody, V domains shown)
VH: EVQLVESGGGLVQPGRSLRLSCAASGFTFDDYAMHWVRQAPGKGLEWVSGISWNRGSIGYADSVKGRFTISRDNAKNSLYLQMSSLRAEDTALYYCAKDGERWDSVVVPSARNGMDVWGQGTTVTVSS
VL: QSVLTQPPSVSGAPGQRVTISCTGSSSNIGAGYDVHWYQQLPGTAPKLLIYGNSNRPSGVPDRFSGSKSGTSASLAITGLQAEDEADYYCQSYDSSLSGSYVFGTGTKVTVLG
B7: mAb11004 (antibody, V domains shown)
VH: QVQLVESGGGVVQPGRSLRLSCVASGFTFSIYGMDWVRQAPGKGLEWVAVISYDGSNKYYADSVKGRFTISRDNSKNTLYLQMNSLRPEDTAVYYCAKDREAAADAFDIWGQGTMVTVSS
VL: DIQMTQSPSSVSASVGDRVTITCRASQGISSWLAWYQQKPGKAPKLLIYAASSLHSGVPSRFSGSGSGTDFTLTISSLQPEDFATYYCQQANSFRLTFGGGTKVEIKR
B8: mAb10971 (antibody, V domains shown)
VH: EVQLVESGGGLIQPGGSLRLSCAASGVTVSSNYMSWVRQAPGKGLEWVSVIYSGGSTFYSDSVKGRFSISRDNSKNTLYLQMNSLRAEDTAVYYCARDLYYYGMDVWGQGTTVTVSS
VL: DIQLTQSPSFLSASVGDRVTITCRASQGISTYLAWYQQKPGKAPKLLIYAASTLQSGVPSRFSGSGSGTEFTLTISSLQPEDFATYYCQQLDSYPGLTFGGGTKVEIKR
B9: mAb10966 (antibody, V domains shown)
VH: B5 VH
VL: B2 VL with N30S, K31N, E55G, G66R, Q89H, S91Y, L96Q, G100P, E105D
B10: mAb10954 (antibody, V domains shown)
VH: EVQLVESGGGLVQPGGSLRLSCAASGITVSSNYMSWVRQAPGKGLEWVSLIYSGGSTYYADSVKGRFTISRDNSKNTLYLQMNSLRVEDTAVYYCARDHGMAAAGYNYWGQGTLVTVSS
VL: B2 VL with S76N, I83F, Y87F, S91Y, L96P, T97A, G100Q
B11: mAb10922 (antibody, V domains shown)
VH: EVQLVESGGGLVQPGGSLRLSCAASGFTFSIYEMNWVRQAPGKGLEWVSYITSSGTTIYYADSVKGRFTISRDNAKNSLYLQMNSLRAEDTAVYYCASSSSSGYYFDYWGQGTLVTVSS
VL: not shown
B12: mAb10930 (antibody, V domains shown)
VH: B1 VH
VL: not shown
B13: mAb10935 (antibody, V domains shown)
VH: B2 VH
VL: B2 VL
B14: mAb10938 (antibody, V domains shown)
VH: B3 VH
VL: B2 VL with N30R, K31N, S65I, S91Y, L96I, G100Q, K103R, V104L
B15: mAb10939 (antibody, V domains shown)
VH: B4 VH
VL: B4 VL
B16: mAb10966 (antibody, V domains shown)
VH: B5 VH
VL: B2 VL with N30S, K31N, E55G, G66R, Q89H, S91Y, L96Q, G100P, E105D
B17: mAb10985 (antibody, V domains shown)
VH: B6 VH
VL: B6 VL
B18: mAb11004 (antibody, V domains shown)
VH: B7 VH
VL: B7 VL
B19: mAb11006 (antibody, V domains shown)
VH: EVQLVESGGGLVQPGGSLRLSCAASGFIVSRNYMSWVRQAPGKGLEWVSVIYSGGSTFYADSVKGRFTISRHNSKNTLYLQMNSLKAEDTAVYYCARELRGYFDYWGQGTLVTVSS
VL: DIQLTQSPSFLSASVGDRVTITCWASQGISSYLAWYQQKPGKAPKLLIYAASTLQSGVPSRFSGSGSGTEFTLTISSLQPEDFATYYCQLLNSYPYTFGQGTKLEIKR
B20: mAb11008 (antibody, V domains shown)
VH: EVQLVESGGGLVQPGGSLRLSCAASGFTVSSNYMTWVRQAPGKGLEWVSVIYSGGSTFYADSVKGRFTISRHNSENTLYLQMNSLRAEDTAVYYCARDLAAAGTDYWGQGALVTVSS
VL: B19 VL with E81D, L90H, P95L

Target: SARS-COV-2 RBD extracellular domain expressed with a C-terminal mouse IgG2a (SARS-COV-2 RBD-mFc) (SARS-CoV-2)
Assay: SPR, captured mAb, RBD-mFc in solution, 37 C

First: B1
Second: B2
The “30 nM Ag Bound (RU)” value of the first is lower: 72 RU for the first, 101 RU for the second.

First: B3
Second: B4
The “30 nM Ag Bound (RU)” value of the first is lower: 76 RU for the first, 92 RU for the second.

First: B5
Second: B6
The “30 nM Ag Bound (RU)” value of the first is higher: 92 RU for the first, 87 RU for the second.

For B7, the “30 nM Ag Bound (RU)” value was 83 RU.

Target: SARS-CoV-2-S-RBD-mmH (RBD of SARS-CoV-2 spike, amino acids 319-541, with a 6x histidine tag and two (SARS-CoV-2))
Assay: ELISA, RBD-mmH coated, supernatant 1:50, a-hFc detection

First: B8
Second: B9
The “Binding Signal (absorbance at 450 nm)” value of the first is higher: 3.05 absorbance at 450 nm for the first, 0.421 absorbance at 450 nm for the second.

In the case of B10, the “Binding Signal (absorbance at 450 nm)” value is reported as 1.96 absorbance at 450 nm.

Target: SARS-COV-2 RBD extracellular domain expressed with a C-terminal myc-myc-hexahistidine tag (SARS-CoV-2)
Assay: SPR Biacore, mAb captured via anti-hFc, 37 C

Compared with B11, B12 is lower in “90 nM Ag Bound (RU)” value: 130 RU for the first, 42 RU for the second.

First: B13
Second: B14
The “90 nM Ag Bound (RU)” value of the first is lower: 75 RU for the first, 100 RU for the second.

Compared with B15, B16 is higher in “90 nM Ag Bound (RU)” value: 90 RU for the first, 118 RU for the second.

Compared with B17, B18 is lower in “90 nM Ag Bound (RU)” value: 134 RU for the first, 79 RU for the second.

Going from B19 to B20, the “90 nM Ag Bound (RU)” value falls from 92 RU to 38 RU.

First: B11
Second: B12
The Kd of the first is 9.2-fold lower: 8.89 nM for the first, 81.4 nM for the second.

Going from B13 to B14, the Kd falls from 85.6 nM to 10.5 nM (8.2-fold). The second binds more tightly here.

First: B15
Second: B16
The Kd of the first is 10-fold higher: 39.5 nM for the first, 3.79 nM for the second. The second binds more tightly here.

Going from B17 to B18, the Kd falls from 1.65 nM to 0.848 nM (1.9-fold). The second binds more tightly here.

Going from B19 to B20, the Kd falls from 23.5 nM to 10.6 nM (2.2-fold).

Compared with B11, B12 is 2-fold lower in “t½” value: 1.2 min for the first, 0.6 min for the second.

First: B13
Second: B14
The “t½” value of the first is 34-fold lower: 0.3 min for the first, 10.3 min for the second.

First: B15
Second: B16
The “t½” value of the first is 5.8-fold lower: 1.2 min for the first, 6.9 min for the second.

First: B17
Second: B18
The “t½” value of the first is 2.9-fold lower: 2.7 min for the first, 7.8 min for the second.

First: B19
Second: B20
The “t½” value of the first is 9.5-fold lower: 0.8 min for the first, 7.6 min for the second.

Work on B12 yielded a koff of 0.0187 s⁻¹.

With B12 the kon was 230000 M⁻¹ s⁻¹.

Target: SARS-COV-2 RBD extracellular domain expressed with a C-terminal mouse IgG2a (SARS-CoV-2)
Assay: SPR Biacore, mAb captured via anti-hFc, 25 C

Compared with B11, B12 is lower in “30 nM Ag Bound (RU)” value: 80 RU for the first, 61 RU for the second.

Compared with B13, B14 is lower in “30 nM Ag Bound (RU)” value: 88 RU for the first, 47 RU for the second.

Going from B15 to B16, the “30 nM Ag Bound (RU)” value rises from 67 RU to 73 RU.

First: B17
Second: B18
The “30 nM Ag Bound (RU)” value of the first is higher: 77 RU for the first, 66 RU for the second.

Compared with B19, B20 is lower in “30 nM Ag Bound (RU)” value: 73 RU for the first, 69 RU for the second.

Source: US20240043504A1 (published 2024)
